Patent publication US20140194392A1 (priority 2013, published 2014)

Chains of the proteins cited; added tags and fusions are not shown. Residues count along the entry.
UniProt Q6DPL2, 63-449 limits assumed: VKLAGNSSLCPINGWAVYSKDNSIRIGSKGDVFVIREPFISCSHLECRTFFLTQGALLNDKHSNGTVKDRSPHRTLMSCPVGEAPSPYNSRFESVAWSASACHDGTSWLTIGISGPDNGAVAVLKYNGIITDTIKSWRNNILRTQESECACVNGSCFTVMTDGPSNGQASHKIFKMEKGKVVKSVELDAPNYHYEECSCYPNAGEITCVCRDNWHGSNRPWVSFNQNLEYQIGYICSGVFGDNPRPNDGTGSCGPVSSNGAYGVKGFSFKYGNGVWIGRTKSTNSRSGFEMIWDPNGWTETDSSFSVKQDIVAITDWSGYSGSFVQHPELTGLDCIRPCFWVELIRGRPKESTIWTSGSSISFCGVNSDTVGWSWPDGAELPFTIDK

Molecular target: Bac-NA^WT (Influenza A virus, UniProt Q6DPL2)
Conditions: IC50 compared with Bac-NA^WT

Nc1c(S(=O)(=O)O)cc(Nc2cccc(S(=O)(=O)CCOS(=O)(=O)O)c2)c2c1C(=O)c1ccccc1C2=O [RB19, remazol brilliant blue R]
Fold change: 3.4 × 10^3(1)
